Pooled drug test results. Numbers come from NIAID ChemDB, via PubChem.

All rows: tests in culture; agent: Mycobacterium avium; measure: MIC

Rows are shuffled and stem from different studies.

structure | strain or isolate | conditions | result
O=c1oc2cc(Cl)ccc2c(=O)n1-c1ccccc1 | CNCTC MY330/88 | - | 8 µM
CCCOc1ccc(NC(=O)OCCN2CCCCCC2)cc1 | MY330/88 | - | 125 µM
COc1ccc2oc(=S)n(-c3ccc(Br)cc3)c(=S)c2c1 | MY330/88 | 14 d | 62.5 µM
Cc1ccc(-n2c(=O)oc3ccc([N+](=O)[O-])cc3c2=O)cc1 | CNCTC MY330/88 | - | 250 µM
CC[C@H]1OC(=O)[C@H](C)C(=O)[C@H](C)[C@@H](O[C@@H]2O[C@H](C)C[C@H](N(C)C)[C@H]2O)[C@](C)(OC)C[C@@H](C)C(=O)[C@H](C)[C@H]2N(NCCCc3ccnc4ccccc34)C(=O)O[C@]12C | Isolate 1295 | - | 2.5 µg/mL
CCCCCCCCCOc1ccc(NC(=O)OCCN2CCCCC2)cc1 | MY330/88 | - | 8 µM
Cc1ccc2nc(SCc3cccc(C(F)(F)F)c3)[nH]c2c1 | MY330/88 | - | 62 µM
O=c1oc2ccc(Br)cc2c(=S)n1-c1ccc(Cl)cc1 | MY330/88 | 14 d | 16 µM
CCOc1ccc(NC(=O)OCCN2CCOCC2)cc1 | MY330/88 | - | 1000 µM
Cc1ccc2nc(SCc3ccccc3[N+](=O)[O-])[nH]c2c1 | MY330/88 | - | 62 µM
Cc1ccc(-n2c(=O)oc3ccc(F)cc3c2=S)cc1 | MY330/88 | 14 d | 8 µM
CC(C)(C)c1ccc(CNC(=O)c2ccccc2O)cc1 | MY330/88 | - | 32 µg/mL
O=c1oc2ccccc2c(=O)n1-c1cccc(F)c1 | CNCTC MY330/88 | - | 125 µM
Cc1ccc2nc(SCc3cccc(C#N)c3)[nH]c2c1 | MY330/88 | - | 62 µM
Cc1ccc(CNC(=S)c2ccc([N+](=O)[O-])cc2O)cc1 | MY330/88 | - | >125 µg/mL
Cc1ccc2nc(SCc3c(F)cccc3Cl)[nH]c2c1 | MY330/88 | - | 16 µM
Cc1ccc(-n2c(=O)oc3ccccc3c2=O)cc1 | CNCTC MY330/88 | - | 62 µM
NNC(=O)c1ccncc1 | 3337-4 | - | 1.25 µg/mL
Cc1ccc2c(=O)n(-c3ccc(Cl)c(Cl)c3)c(=O)oc2c1 | CNCTC MY330/88 | - | 31 µM
CC(C)N=c1cc2n(-c3ccc(Cl)cc3)c3ccccc3nc-2cc1Nc1ccc(Cl)cc1 | 34540 | - | 5 µg/mL
Fc1ccc2oc(=S)n(-c3ccccc3)c(=S)c2c1 | MY330/88 | 14 d | 8 µM
CCCCCCOc1ccccc1NC(=O)OCCN1CCCCC1 | MY330/88 | - | 62.5 µM
Cc1cccc(O)c1C(=O)NCc1ccccc1 | MY330/88 | - | 62.5 µg/mL
Cc1cccc(C(N)=Nc2nc(-c3ccccn3)cc3ccccc23)c1 | SK-12 | - | 1 µg/mL
COc1ccc2oc(=O)n(-c3ccccc3)c(=S)c2c1 | MY330/88 | 21 d | 32 µM
Cc1ccc2nc(SCc3ccccc3Cl)[nH]c2c1 | MY330/88 | - | 62 µM
O=c1oc2ccccc2c(=O)n1-c1ccc(F)cc1 | CNCTC MY330/88 | - | 62 µM
COc1cccc(CSc2nc3ccc(C)cc3[nH]2)c1 | MY330/88 | - | 62 µM
O=c1oc2ccc([N+](=O)[O-])cc2c(=O)n1-c1ccc(Cl)cc1 | CNCTC MY330/88 | - | 125 µM
CCCCCCCOc1ccc(NC(=O)OCCN2CCOCC2)cc1 | MY330/88 | - | 16 µM
Cc1ccc(O)c(C(=S)NCc2cccc([N+](=O)[O-])c2)c1 | MY330/88 | - | 1 µg/mL

Repeating the final 2 entries:

structure,strain or isolate,conditions,result
CCCCCCCOc1ccc(NC(=O)OCCN2CCOCC2)cc1,MY330/88,-,16 µM
Cc1ccc(O)c(C(=S)NCc2cccc([N+](=O)[O-])c2)c1,MY330/88,-,1 µg/mL

An empty or dashed field is not shown.